Source: patent publication US20260069689A1, “ANTI-SARS-COV-2-SPIKE GLYCOPROTEIN ANTIBODIES AND ANTIGEN-BINDING FRAGMENTS” (Regeneron, published 2026)

Target: SARS-COV-2 RBD extracellular domain expressed with a C-terminal myc-myc-hexahistidine tag (SARS-CoV-2)
Test: SPR (Biacore), mAb captured by anti-human Fc, RBD-mmH in solution, 25 C

Row | Binder | RBD monomer bound at 50 nM (RU) | Kd [nM] | koff [s⁻¹] | kon [M⁻¹ s⁻¹] | t½ [min]
1 | mAb15163 (antibody, V domains shown) VH: EVQLVETGGGLIQPGESLRLSCAASGFIVSTNYMNWVRQAPGKGLEWVSVIYRGGSTYYADSVKGRFTISRDNSKNTLFLQMNSLRAEDTAVYYCARGHEDFDYDTPASGAFDIWGQGTMVTVSS VL: QSALTQPPSASGSPGQSVTISCTGTSSDVGGHNYVSWYQQHPGKAPKVMIYEVSKRPSGVPDRFSGSKSGNTASLTVSGLQAEDEADYYCSSYAGSNKFVFGTGTKVTVLG | 51 |  |  |  | 
2 | mAb15164 (antibody, V domains shown) VH: EVQLVESGGGLVQPGGSLRLSCAASGFAVSSNYMTWVRQAPGKGLEWVATIYSGDSTYYADSVKGRFTISRHNSKNTLSLQMNSLRADDTAIYYCARLSGVLSGTYNGAFDIWGQGTMVTVSS VL: QSALTQPASVSGSPGQSITISCTGTSSDFGNYNIVSWYQQHPGQAPKVMIYEGNKRPSGVSNRFSGSKSGHTASLTISGLQAEDEADYYCSSYAGSSTWVFGGGTKLTVLG | 41.2 |  |  |  | 
3 | mAb15165 (antibody, V domains shown) VH: EVQLVESGGGLVQPGGSLRLSCAASGFTVSSNYMSWVRQAPGKGLEWVSAIYSGDSTYYADSVKGRFTISKDNSKNTLYLQMNSLRGEDTAVYYCARLGGALQAYDGAFDYWGQGTLATVSS VL: QSALTQPASVSGSPGQSITISCTGTSSDFGSYNLVSWYQQHPGKAPKLMIYEGNKRPSGVSIRFSGSKSGNTASLTISGLQAEDEADYYCSSYAGSSTWVFGGGTKLTVLG | 33.9 |  |  |  | 
4 | mAb15166 (antibody, V domains shown) VH: EVQLVESGGGLVQPGGSLRLSCAASGFTVTSNYMSWVRQAPGKGLEWVSAIYSGESTYYADSVKGRFTISRDSSKNTLYLQMNSLRVEDTAVYYCASIHDYSNYVGGFDPWGQGTLVTVSS VL: QSALTQPASVSGSPGQSITISCTGPSSDFGSYNLVSWYQQHPGKAPKLMIYEGTKRPSGVSNRFSGSKSGNTASLTISGLQAEDEADYYCSSYAGSSTWVFGGGTKLTVLG | 13.3 |  |  |  | 
5 | mAb14260 (antibody, V domains shown) VH: EVQLVESGGGLVQPGGSLRLSCAASGFTFSIYEMNWVRQAPGKGLEWVSYITSSGFTIYYADSVKGRFTISRDNAKNSLYLQMHSLRAEDTAVYYCATSSSSGYYFDYWGQGTLVTVSS VL: not shown | 174 | 0.738 | 0.00138 | 1.87e+06 | 8.4
6 | mAb15170 (antibody, V domains shown) VH: EVQLVESGGGLVQPGGSLRLSCAATGITVSSNYMSWVRQAPGKGLEWVSLIYSGGSTFYADSVKGRFTISRHNSKNTLYLQMSSLRAEDTAVYYCARDLVDFGMDVWGQGTTVTVSS VL: DIQLTQSPSSLSASVGDRVTITCRASQGISNYLAWYQQKPGKAPKLLIYAASTLQSGVPSRFSGSGSGTDFTLTISSLQPEDFGTYYCQQLNSDSPTFGQGTKVEIKR | 21.8 |  |  |  | 
7 | mAb15150 (antibody, V domains shown) VH: EVQLVETGGGLIQPGGSLRLSCAAPGFIVSSNYMSWVRQAPGKGLEWVSLLYPGGSTYYADSVKGRFTISRDNSKNTLYLQMNSLRADDTAVYYCARVLPIVEDHFDYWGQGTLVTVSS VL: DIQLTQSPSFLSASVGDRVTITCRASQGMSSYLAWYQKKPGKAPKLLIYGATILQSGVPSRFSGSGSGTEFTLTISSLQPEDFATYYCQQLNSDPLYMYTFGQGTKLEIKR | 33.3 |  |  |  | 
8 | mAb15151 (antibody, V domains shown) VH: QVQLVESGGGVVQPGRSLRLSCAASGFVFNSYGMHWVRQAPGKGLEWVAVLWYEGSKNYYADSVKGRFTISRDNSKNTLYLQMNSLRAEDTAVYYCARHGSGSFFGYYLDYWGQGTLVTVSS VL: DIQMTQSPSSLSASVGDRVTITCRASHNINDFLNWYQQKPGKAPRLLIYAASSLQSGVPSRFSGSGSGTDFTLTISSLQPEDFATYYCQESYTTPPTFGQGTKLEIKR | 63.4 |  |  |  | 
9 | mAb14284 (antibody, V domains shown) VH: QITLKESGPTLVKPTQTLTLTCTFSGFSFSTSGVGVGWIRQPPGKTLEWLALIYWDDDKRYSPSLKSRLTITKDTSKNQVVLTMTNMDPVDTATYFCAHHGIPTIFGYWGQGALVTVSS VL: QSALTQPASVSGSPGQSITISCTGTSSDLGVFNYVSWYQQHPGKAPKLMIYEVTNRPSGVSNRFSGSKSGNTASLTISGLQAEDEADYYCSSYTTSSTVFGGGTKLTVLG | 236 |  |  |  | 
10 | mAb14258 (antibody, V domains shown) VH: QLQLQESGPGLVKPSETLSLICTGSGDSISSSHYYWGWIRQPPGKGLEWIGSTYFSGSTYYNPSLKSRVSISVDTSKNQVSLKLISVTAADTAVYYCAREMGATLGDYWGPGTLVTVSS VL: QSVLTQPPSASGTPGQRVTISCSGSSSNIGNNYVYWYQQFPGTTPRLLIYRNNERPSGVPDRFSGSKSGTSASLVISGLRSEDEADYYCAAWDDSLSAHYVFGTGTKVTVLG | 180 |  |  |  | 
11 | mAb14294 (antibody, V domains shown) VH: EVQLVESGGGLVQPGGSLRLSCAASGFTFSNHWMDWVRQAPGKGLVWVSRINSDGSSTDYADSVRGRFTMSRDNAKNTLYLQMSSLRAEDTAVYYCAREGMIFGAVIIPGWYFDLWGRGALVTVSS VL: EIVLTQSPGTLSLSPGERATLSCRASQSVSSSQLAWYQQKPGQAPRLLIYGASSRATGIPDRFSGSGSGTDFTLTISRLEPEDFAVYYCQQYDSFGQGTKLEIKR | 138 |  |  |  | 
12 | mAb14283 (antibody, V domains shown) VH: QVQLQESGPGLVKPSGTLSLTCDVSGGSISSNNWWSWVRQRPGKGLQWIGEIYHNENTNYNPSLKSRVIMSIDKSKNQFSLKLTSVTAADTAVYYCARGDVLDWFDPWGQGTLVTVSS VL: QSALTQPASVSGSPGQSTTISCTGTSSDVGGYNYVSWYQQYPGKAPKLMIYDVTNRPSGVSHRFSGSKSGNTASLTISGLQAEDEADYYCSSYTSSSTVIFGGGTKLTVLG | 172 |  |  |  | 
13 | mAb14235 (antibody, V domains shown) VH: QITLKESGPTLVKPTQTLTLTCTFSGFSLNTGGVGVGWIRQPPGNALEWLALIYWDDDKRYNPSLKTRLTISKDTSKNQVVLTMTNMDPVDTATYFCAHLTIAVIVDFWGQGTLVTVSS VL: QSALTQPASVSGSPGQSITISCTATSSDVGTYNYVSWFQHHPGKAPKLMIYEVTNRPSGVSNRFSGSKSGNTASLTISGLQAEDEADYYCSSYTTTSIVFGGGTKLTVLG | 117 |  |  |  | 
14 | mAb14289 (antibody, V domains shown) VH: QVQLVQSGPEVKKPGASVKVSCKASGYTFTSYAISWVRQAPGQGLEWMGWISAYNGNTNYAQKLQGRVTMTTDTFTSTAYMELRSLRSDDTAVYYCAVPADHITFDYWGQGTLVTVSS VL: EIVLTQSPGTLSLSPGERATLSCRASQSVSSYLAWYQQKPGQAPRLLIHGASSRATGIPDRFSGSGSGTDFTLTISRLEPEDFAVYYCQQYGSSFLTFGGGTKVEIKR | 151 |  |  |  | 
15 | mAb13458 (antibody, V domains shown) VH: EVQLVESGGGLVQPGRSLRLSCAASGFTFDDYAMHWVRQAPGKGLEWVSGISWNSGSIGYADSVKGRFTISRDNAKNSLYLQMNSLRAEDTALYYCAKDIGITTPYWGQGTLVTVSS VL: AIQMTQSPSSLSASVGDRVTITCRASQDIRNDLGWYQQKPGKAPKLLIYSASSLQTGVPSRFSGSGSGTDFTLTISSLHPEDFATYYCLQDYWYTWTFGQGTKVEIKR | 158 |  |  |  | 
16 | mAb13459 (antibody, V domains shown) VH: EVQLVESGGGLVQPGRSLRLSCAASGFTFDDYAMHWVRQAPGKGLEWVSGISWNSGSIGYADSVKGRFTISRDNAKNSLYLQMNSLRAEDTALYYCAKDIGITTPYWGQGTLVTVSS VL: AIQMTQSPSSLSASVGDRVTITCRASQDIRNDLGWYQQKPGKAPKLLIYSASSLQTGVPSRFSGSGSGTDFTLTISSLHPEDFATYYCLQDYNYVWTFGQGTKVEIKR | 219 |  |  |  | 
17 | mAb14313 (antibody, V domains shown) VH: EVQLVESGGGLVQPGRSLRLSCVASGFTFDDSAMHWVRQPPGKGLEWVSGISWNSGIIGYAESVKGRFIISRDNAKNSLFLHMRGLRPEDTAVYYCARDRLELSYYYYGMDVWGQGTTVTVSS VL: QSVLTQPPSASGTPGQRVTISCSGSSSNIGSNTVNWYQQFPGTAPRLLIYSNDQRPSGIPDRFSGSKSGTSASLAISGLQSEDEADYYCSTWDDSLNGAVFGGGTQLTVLG | 218 |  |  |  | 
18 | mAb14247 (antibody, V domains shown) VH: QITLKESGPTLVKPTQTLTLTCTFSGFSLSTSAVGVGWIRQPPGKALEWLALIYWDDDKRYSPSLKSRLTITKDTSKNQLVLTMTNVDPVDTATYYCAHHTIQLIFDYWGQGTLVTVSS VL: QSALTQPASVSGSPGQSITISCTATSSDVGNYNYVSWYQQHPGKAPKLMIYEVSNRPSGVSNRFSGSKSGNTASLTISGLQAEDEADYYCSSYTSSSTPLVFGGGTKLTVLG | 63.3 |  |  |  | 
19 | mAb14315 (antibody, V domains shown) VH: QVQLVQSGAEVKKPGSSVKVSCKASGDTFSTYAINWVRQAPGQGLEWMGRFIHIFGTANYAQKFQGRVTITADESTSTAYMELRSLRSEDTAVYYCARDGVDYGDYRPDYWGQGTLVTVSS VL: EIVLTQSPGTLSLSPGERATLSCRASQSVSSNYLAWYQQKPGQAPRLLIYGASSRATGIPERFSGSGSGTDFTLTISRLEPEDFAVYYCQQYGSSLYTFGQGTKLEIKR | 127 |  |  |  | 
20 | mAb14257 (antibody, V domains shown) VH: EVQLVESGGGLVQPGGSLRLSCAASGFTVSRSYMNWVRQAPGKGLEWVSVVFTGGTTKHTDSVKGRFTISRDNSMNTLYLQMNSLRPEDTAVYYCARVAIVETTGAFDIWGQGTMVTVSS VL: QSVLTQPPSVSGAPGQRVTISCTGTSSNIGADFDVHWYQQFPGTAPKLLIYGHTNRPSGIPDRFSGSKSGTSASLAITGLQAEDEADYYCQSYDSSLSGSVVFGGGTKLTVLG | 215 |  |  |  | 
21 | mAb14255 (antibody, V domains shown) VH: QVQLQESGPGLVKPSETLSLTCTVSGGSISGYYWSWIRQPPGKGLDWIGYIYYRGNTNYNPSLKSRVTISVDTSNNQFSLKLSSVTAADTAVYYCARYGEGYGDASGYHFDYWGQGTLVTVSS VL: QSALTQPASVSGSPGQSITISCTGTSSDVGSYNLVSWYQQHPGKAPKLMIYEDSKRPSGVANPFSGSKSGNTASLTISGLQAEDEADYYCSSYAGSSTWVFGGGTKLTVLG | 180 |  |  |  | 
